Data as given in PubChem BioAssay AID624099 (ICCB-Longwood, 2012).

- Test: 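Human genes that papillomavirus E2 requires to repress the HPV18 LCR promoter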 (primary screen)
- Cells: human C33A cervical carcinoma cells (HPV-negative) stably expressing BPV1 E2 and an HPV18 LCR luciferase reporter
- Knock-down reagent: siRNA pool against human genes, 40 nM
- Duration: 72 h
- Read-out: 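Per-well luciferase luminescence, z-scored on each plate against the plate mean and SD with control wells left out, then averaged across three replicate plates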
- Direction: mean z-score and z-score: higher = stronger reporter signal, weaker E2 silencing
- Rule for the call: 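Hit if mean z-score reaches 2 and two or more of three replicate z-scores also reach 2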
This is a random part of about 21,000 reagents tested. 497 of all reagents (2.4%) count as active. 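Higher z means weaker E2 silencing; only reporter increases were scored, and knock-downs that hurt cell survival may mask genuine repressor factors.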

CDC42EP3 → mean z-score = 1.14; z-score, replicate A = 1.01; z-score, replicate B = 1.14; z-score, replicate C = 1.26; call = inactive
CYLC1 → mean z-score = 1.49; z-score, replicate A = 1.26; z-score, replicate B = 1.87; z-score, replicate C = 1.34; call = inactive
RPA4 → mean z-score = -1.06; z-score, replicate A = -0.73; z-score, replicate B = -1.27; z-score, replicate C = -1.19; call = inactive
PLEKHS1 → mean z-score = -1.37; z-score, replicate A = -1.42; z-score, replicate B = -1.22; z-score, replicate C = -1.48; call = inactive
LINC00955 → mean z-score = -0.35; z-score, replicate A = -0.52; z-score, replicate B = -0.21; z-score, replicate C = -0.33; call = inactive
KLRG2 → mean z-score = -2.02; z-score, replicate A = -1.96; z-score, replicate B = -1.74; z-score, replicate C = -2.35; call = inactive
RAB3IP → mean z-score = 0.78; z-score, replicate A = 0.85; z-score, replicate B = 0.57; z-score, replicate C = 0.91; call = inactive
FRMPD1 → mean z-score = -1.94; z-score, replicate A = -1.65; z-score, replicate B = -2.24; z-score, replicate C = -1.92; call = inactive
PPP1R12A → mean z-score = 0.57; z-score, replicate A = 0.52; z-score, replicate B = 0.61; z-score, replicate C = 0.58; call = inactive
ATP6AP1 → mean z-score = -0.98; z-score, replicate A = -1.19; z-score, replicate B = -0.8; z-score, replicate C = -0.94; call = inactive
EEF1A1P16 → mean z-score = 1.08; z-score, replicate A = 1.37; z-score, replicate B = 1.04; z-score, replicate C = 0.85; call = inactive
ZNF780A → mean z-score = -0.86; z-score, replicate A = -0.64; z-score, replicate B = -0.8; z-score, replicate C = -1.13; call = inactive

In a second layout: results already given.
ATP6AP1
- mean z-score: -0.98
- z-score, replicate A: -1.19
- z-score, replicate B: -0.8
- z-score, replicate C: -0.94
- call: inactive

EEF1A1P16
- mean z-score: 1.08
- z-score, replicate A: 1.37
- z-score, replicate B: 1.04
- z-score, replicate C: 0.85
- call: inactive
